{"source": "paper PMC11841396", "target": "ArgR (Aeromonas veronii) (UniProt A0A0T6R9P2)", "test": "EMSA", "settings": "5 mM Mg2+, […] (pH not stated), 5 mM MgCl2, 1 mM DTT, room temperature, recombinant protein, protein details: His-tag (pET28a), label: 5' 6-FAM on the ParrS-R strand, probe letters rebuilt from the primers and the genome", "note": "Construct, isoform or probe ends are uncertain for at least one entry."}
{"sequence": "ACCACGCAGGCTTTATCATCAGGTTGCCATCCCGGTACTAGCCGGACTCACAGCCGCACATCGGCATGTCGCGGCCCAATATTGAGTAAATTGATGTTGGCCGCTGCATTTTAATGCACTTACAATATGCGCCCAATTCTGTTGGATTCCTTCTGATGCTCCGCCAATGTGAT (double strand) [ParrS (6-FAM)]", "values": [{"measurement": "binding result", "value": "binds"}]}
